Source: patent US20140080766

Assays:
[1] = target: carcinoembryonic antigen (CEA) on HT-1080(CEA) and HT-29 cells, human, P06731 35-685; assay: cell-based or functional assay
[2] = target: epidermal growth factor receptor (EGFR) on human cancer cell lines (A431, HT-1080(CEA), HT-29), human, P00533 25-1210; assay: cell-based or functional assay

Row | Substance | IC50's (M), cytotoxicity on HT-29 cells [1] [M] | IC50's (M), cytotoxicity on A431 cells [2] [M] | IC50's (M), cytotoxicity on HT-29 cells [2] [M] | IC50's (M), cytotoxicity on HT-1080(CEA) cells [2] [M]
1 | C7PFO (CEA-binding Fn3 clone C7 - perfringolysin O fusion protein) | 1.2e-10 | – | – | –
2 | E6PFO (EGFR-binding Fn3 clone E6 - perfringolysin O fusion protein) | – | 5.4e-10 | 1.5e-11 | 1e-11
